Compound potency records, mixed from different reports. Data source: NIAID ChemDB in PubChem.

Shared fields: whole-cell or culture tests; species: Mycobacterium tuberculosis

MIC bound comes from a single tested concentration. Lines come from different laboratories, so protocols vary. A number after MIC or MFC names an inhibition level or a share of isolates. Blank or dashed fields: not listed here. ECn is the concentration giving n% inhibition of infection, replication or growth. Inhibition is in % at the dose shown (toxicity tests: loss of growth or viability).

smiles,measure,cells,mutations,dose,strain or isolate,method,value
CCOC(=O)c1ccc2c(c1)nc(-c1ccc(N(C)C)cc1)n2CCN1CCCC1=O,MIC,-,-,-,H37Rv,resazurin / fluorescence,>100 µM
O=C([C@@H](O)CO)N1CC=C(c2c(F)cc(N3C[C@H](COc4ccon4)OC3=O)cc2F)CC1,MIC,-,-,-,H37Rv (ATCC 27294),broth dilution,1 µg/mL
Cc1ccccc1-n1c(-c2ccccc2)cs/c1=N/NC(=O)CSc1nnc(-c2ccccn2)s1,MIC,-,-,-,H37Rv,-,>80 µg/mL
CN(C)C(=S)S(=O)(=O)CCCCS(=O)(=O)C(=S)N(C)C,inhibition,-,-,128 µg/mL,H37Rv,BACTEC,100%
CO[C@H]1/C=C/O[C@@]2(C)Oc3c(C)c(O)c4c(O)c(c5c(c4c3C2=O)NC2(CCN(CC(C)C)CC2)N=5)=NC(=O)/C(C)=C\C=C\[C@H](C)[C@H](O)[C@@H](C)[C@@H](O)[C@@H](C)[C@H](OC(C)=O)[C@@H]1C,MIC90,-,-,-,30 isolates,-,8 µg/mL
C[C@H]1CN(c2c(F)cc3c(=O)c(C(=O)O)cn(C4CC4)c3c2OC(F)F)CCN1,MIC50,-,-,-,100 isolates,-,0.5 µg/mL
CC(C)(C)NC(=O)c1cccc(C(=O)NC(C)(C)C)n1,inhibition,-,-,6.25 µg/mL,H37Rv,resazurin,-20%
CCOC(=O)c1ccc2c(c1)nc(-c1ccc(N(C)C)cc1)n2CCN1CCCOC1,EC50,-,-,-,H37Rv,resazurin / fluorescence,>100 µM
CCn1cc(C(=O)O)c(=O)c2cc(F)c(N3CCN(C/C(=N/O)c4ccc(OC)cc4)CC3)cc21,inhibition,-,-,6.25 µg/mL,H37Rv,-,27%
Nc1nc(-c2ccccc2)c(-c2ccccc2)s1,MIC bound,-,-,-,H37Rv,BACTEC,>6.25 µg/mL
O=C(CSc1nnc(-c2ccccn2)s1)N/N=c1/scc(-c2ccccc2)n1-c1ccc(Cl)cc1,MIC,-,-,-,Clinical isolate 331,-,40 µg/mL
O=C(CN1CCN(c2cc3c(cc2F)c(=O)c(C(=O)O)cn3C2CC2)CC1)c1ccccc1,EC50,VERO,-,-,H37Rv,-,<6.25 µg/mL
O=C(Nc1ccccc1-c1n[nH]c(=S)[nH]c1=O)C(F)(F)F,inhibition,-,-,12.5 µg/mL,H37Rv,BACTEC,0%
CC/C(C)=N\NC(=O)CC(=O)N/N=C(/C)CC,MIC,-,-,-,-,-,200 µg/mL
CC[C@@H](CO)NCCN[C@@H](CC)CO,EC90,-,-,-,H37Rv,resazurin / fluorescence,>200 µM
N#C/C(=C\c1ccc(Cl)c(Cl)c1)n1nnc2ccccc21,MIC50,-,-,-,ATCC 27294,-,≥100 µM
CCn1cc(C(=O)O)c(=O)c2cc(F)c(N3CCNCC3)cc21,MIC50,-,-,-,100 isolates,-,16 µg/mL
CCOC(=O)C1=C(O)C2(CC(C)=C(C)CS2=O)SC1=Nc1ccccc1,MIC bound,-,-,-,H37Rv,resazurin,>6.25 µg/mL
NNC(=O)c1ccncc1,MIC,-,T460C Cys154Arg,-,AZD5847-resistant 4.6,-,0.06 µg/mL
NC(=N\N=C\c1ccc(Cl)c(Cl)c1)/C(N)=N/N=C/c1ccc(Cl)c(Cl)c1,MIC,-,-,-,H37Rv,BACTEC,≥12.5 µg/mL
NC(=O)c1cnccn1,MIC,-,-,-,Isolate 98-36,-,900 µg/mL
COc1ccc2cc1-c1cc(ccc1O)C[C@@H]1NCCc3cc4c(cc31)Oc1c(c(OC)cc3c1[C@H](C2)N(C)CC3)O4,MIC,-,-,-,H37Ra,resazurin,3.1 µg/mL
COc1cccc2cc(-c3cn4cc(Br)ccc4n3)c(=O)oc12,MIC,-,-,-,H37Rv,BACTEC,>6.25 µg/mL
COc1ccc2cc1-c1cc(cc(Br)c1O)C[C@H]1c3cc4c(cc3CCN1C)Oc1c(OC)cc3c(c1O4)[C@H](C2)N(C)CC3,MIC,-,-,-,H37Rv,resazurin,3.1 µg/mL
Cc1ccc2[nH]c3nc4cc(C)c(C)cc4nc3c2c1,inhibition,-,-,12.5 µg/mL,H37Rv,BACTEC,-59%
CC1COc2c(N3CCN(C)CC3)c(F)cc3c(=O)c(C(=O)O)cn1c23,MIC,-,-,-,STR-resistant 136570,broth dilution,0.5 µg/mL
NC(=O)c1cnccn1,MIC,-,-,-,ATCC 25618 niacin-positive,-,64 µg/mL
N#C/C(=C\c1ccc(C(F)(F)F)cc1C(F)(F)F)n1nnc2ccccc21,MIC90,-,-,-,ATCC 27294,-,24.4 µM
CCOC(=O)c1ccc(-c2ccc([N+](=O)[O-])cc2)nc1C,MIC,-,-,-,H37Rv,-,25 µg/mL
O=C(N/N=C/c1ccccc1[N+](=O)[O-])c1ccccc1Cl,MIC,-,-,-,-,-,200 µg/mL
CCOC(=O)c1ccc2c(c1)nc(-c1ccc(OC(F)(F)F)cc1)n2CCN1CCCC1=O,MIC,-,-,-,H37Rv,resazurin / fluorescence,>100 µM
c1ccc(N/N=c2/ccc3ccccc3o2)cc1,MIC,-,-,-,-,-,>200 µg/mL
Cc1ccn2cc(-c3cc4cc(Cl)cc(Cl)c4oc3=O)nc2c1,inhibition,-,-,6.25 µg/mL,H37Rv,BACTEC,20%
CC1(C)COC(c2ccccc2Cl)N1,MIC bound,-,-,-,H37Rv,BACTEC,>12.5 µg/mL
CN[C@@H]1[C@H](O[C@H]2[C@H](O[C@H]3[C@H](O)[C@@H](O)[C@H](N=C(N)N)[C@@H](O)[C@@H]3N=C(N)N)O[C@@H](C)[C@]2(O)C=O)O[C@@H](CO)[C@H](O)[C@H]1O,MIC,-,-,-,MTB11 (EMB-R),-,0.3 µg/mL
CC(=O)c1ccc(N2CCN(C(=O)c3ccc(Cl)c(Cl)c3)CC2)cc1,MIC90,-,-,-,BioA overexpression strain,turbidity,>50 µM
CCOC(=O)c1ccc2nc(-c3ccc(C(=O)O)cc3)[nH]c2c1,MIC,-,-,-,H37Rv,resazurin / fluorescence,>100 µM
Cn1nnnc1-c1ccc(N2CCN(C(=O)c3cccc(Cl)c3)CC2)cc1,MIC50,-,-,-,BioA overexpression strain,turbidity,>50 µM
CO[C@H]1/C=C/O[C@@]2(C)Oc3c(C)c(O)c4c(O)c(c(/C=N/N5CCN(C)CC5)c(O)c4c3C2=O)NC(=O)/C(C)=C\C=C\[C@H](C)[C@H](O)[C@@H](C)[C@@H](O)[C@@H](C)[C@H](OC(C)=O)[C@@H]1C,MIC,-,-,-,Clinical isolate 14,-,0.5 µg/mL
O=S(=O)(O)C1=CC(=N/Cl)/C=CC/1=N\Cl,inhibition,-,-,12.5 µg/mL,H37Rv,BACTEC,1%
COC(=O)c1ccc(N2CCN(C(=O)c3cccc(Cl)c3)CC2)cc1,MIC50,-,-,-,Wild type without biotin,turbidity,>50 µM
O=C(O)c1cn(C2CC2)c2cc(N3CCN(C/C(=N/O)c4ccc(Br)cc4)CC3)c(F)cc2c1=O,MIC,-,-,-,H37Rv,-,>6.25 µg/mL
CSCCC(NC(=O)OC(C)(C)C)C(=O)NC(CCSC)C(=O)NC(C)C(=O)O,inhibition,-,-,12.5 µg/mL,H37Rv,BACTEC,0%
O=C(CSc1nnc(-c2ccccn2)s1)N/N=c1/scc(-c2ccccc2)n1-c1ccccc1Cl,MIC,-,-,-,Clinical isolate 190,-,>80 µg/mL
COc1cc(=O)cc2n(-c3cc(OC)c(O)c(OC)c3)c3ccccc3nc1-2,inhibition,-,-,12.5 µg/mL,H37Rv,BACTEC,24%
O=C(CSc1nnc(-c2ccccn2)s1)N/N=c1/scc(-c2ccccc2)n1-c1ccccc1Br,MIC,-,-,-,Clinical isolate 180,-,80 µg/mL
O=C1OC(=O)C2C3(CC3)CC23CC13,inhibition,-,-,12.5 µg/mL,H37Rv,BACTEC,8%
O=C1OCc2cc(N3CCN(C(=O)c4cccc(Cl)c4)CC3)ccc21,MIC90,-,-,-,Wild type without biotin,turbidity,>50 µM
NC(=O)NNC(N)=O,MIC,-,-,-,-,-,>200 µg/mL
O=c1oc2ccc(Br)cc2cc1-c1cn2cc(Br)ccc2n1,MIC,-,-,-,H37Rv,BACTEC,>6.25 µg/mL
CCOC(=O)c1ccc(-c2ccc(Cl)cc2)nc1C,MIC,-,-,-,H37Rv,-,>25 µg/mL
CO[C@H]1/C=C/O[C@@]2(C)Oc3c(C)c(O)c4c(O)c(c(/C=N/N5CCN(C)CC5)c(O)c4c3C2=O)NC(=O)/C(C)=C\C=C\[C@H](C)[C@H](O)[C@@H](C)[C@@H](O)[C@@H](C)[C@H](OC(C)=O)[C@@H]1C,MIC,-,-,-,9135,-,≥2 µg/mL
NNC(=O)c1ccncc1,MIC,-,-,-,MTB11 (EMB-R),-,>4 µg/mL
CC(=O)c1ccc(-c2cn(Cc3cccc(Cl)c3)nn2)s1,MIC50,-,-,-,BioA underexpression strain,turbidity,>50 µM
O=[N+]([O-])c1cn2c(n1)OC[C@@H](OCc1ccc(OC(F)(F)F)cc1)C2,MIC,-,-,-,H37Rv,-,0.024 µg/mL
CSc1ccc(OC(=O)Nc2ccc(C)c([N+](=O)[O-])c2)cc1C,MIC bound,-,-,-,H37Rv,BACTEC,>12.5 µg/mL
Nc1cccc2nc(-c3cc4cccc([N+](=O)[O-])c4oc3=O)cn12,inhibition,-,-,6.25 µg/mL,H37Rv,BACTEC,100%
CCn1cc(C(=O)O)c(=O)c2cc(F)c(N3CCN(C/C(=N/O)c4ccc(F)cc4)CC3)nc21,inhibition,-,-,6.25 µg/mL,H37Rv,-,0%
Cc1ccc(S(=O)(=O)n2cc(-c3ccc4c(n3)CCC(C)(C)C4=O)c3ccccc32)cc1,MIC,-,-,-,H37Rv,-,>25 µg/mL
NNC(=O)c1ccncc1,MIC,-,-,-,Clinical isolate 1,-,>100 µg/mL
CCn1c(O)c(N=NC(=S)c2ccc3ccccc3n2)c2ccccc21,MIC,-,-,-,H37Rv,BACTEC,≥12.8 µg/mL
CCOC(=O)N1CCN(c2ccc(C3CC(c4ccc([N+](=O)[O-])o4)=NO3)cc2)CC1,MIC,-,-,-,CDC1551,-,0.1 µg/mL
Cc1ccccc1-c1cs/c(=N/NC(=O)CSc2nnc(-c3ccccn3)s2)n1-c1ccccc1,MIC,-,-,-,Clinical isolate 190,-,>80 µg/mL
O=C(O)c1ccccc1-c1c2cc(Br)c(=O)c(Br)c-2oc2c(Br)c(O)c(Br)cc12,inhibition,-,-,12.5 µg/mL,H37Rv,BACTEC,-2%
N#C/C(=C\c1cccc(F)c1)n1nnc2ccccc21,MIC50,-,-,-,ATCC 27294,-,55.3 µM
O=[N+]([O-])c1ccc(C2=NOC(c3ccc(N4CCN(Cc5ccccc5)CC4)cc3)C2)o1,MIC,-,-,-,UT18,-,0.0008 µg/mL
Cc1ccc(-c2ccc3c(n2)CCC(C)(C)C3=O)cc1,MIC,-,-,-,H37Rv,-,>25 µg/mL
N#C/C(=C/c1cccc(Cl)c1)n1nnc2ccccc21,MIC90,-,-,-,ATCC 27294,-,>100 µM
O=C1C(=O)c2ccccc2C(O)=C1C(/C=C/c1ccccc1)C1=C(O)c2ccccc2C(=O)C1=O,inhibition,-,-,12.8 µg/mL,H37Rv,BACTEC,58%
CCOC(=O)c1ccc2c(c1)nc(-c1ccccc1)n2CCN1CCCC1=O,MIC,-,-,-,H37Rv,resazurin / fluorescence,100 µM
Cc1ccc(-c2cs/c(=N/NC(=O)CSc3nnc(-c4ccccn4)s3)n2-c2ccccc2)cc1,MIC,-,-,-,Clinical isolate 331,-,40 µg/mL
CC[C@@H](CO)NCCN[C@@H](CC)CO,MIC,-,-,-,MDR13,broth dilution / resazurin,32 µg/mL
COc1ccc(-c2c(-c3ccccc3)oc3cc4c(c(C)c23)C2CCC3(C)C(=O)CCC3C2CC4)cc1,MIC bound,-,-,-,H37Rv,BACTEC,>12.5 µg/mL
COc1cccc(/C=N/NC(=O)c2ccccc2Cl)c1O,MIC,-,-,-,-,-,200 µg/mL
CCCCCCCSCC1C(=O)C23C(O)C1CCC2C12COC3(O)C(O)C1C(C)(C)CCC2O,inhibition,-,-,12.5 µg/mL,H37Rv,BACTEC,77%
Nc1ccc(C(=O)O)c(O)c1,MIC,-,-,-,Clinical isolate 3,-,0.1 µg/mL
S=C(NCCN1CCN2Cc3[nH]c4ccccc4c3CC2C1)Nc1ccccc1,MIC bound,-,-,-,H37Rv,resazurin,>6.25 µg/mL
CC[C@H]1OC(=O)[C@H](C)[C@@H](O[C@H]2C[C@@](C)(OC)[C@@H](O)[C@H](C)O2)[C@H](C)[C@@H](O[C@@H]2O[C@H](C)C[C@H](N(C)C)[C@H]2O)[C@](C)(OC)C[C@@H](C)C(=O)[C@H](C)[C@@H](O)[C@]1(C)O,MIC,-,-,-,9127,-,>4 µg/mL
O=CNNC(=O)c1cnccn1,MIC bound,-,-,-,H37Rv,BACTEC,>12.5 µg/mL
CCOC(=O)c1ccc2c(c1)nc(-c1ccc3c(c1)OCO3)n2CCN1CCCOC1,EC90,-,-,-,H37Rv,resazurin / fluorescence,>100 µM

4 of the rows above, restated:

smiles	measure	cells	mutations	dose	strain or isolate	method	value
N#C/C(=C\c1ccc(Cl)c(Cl)c1)n1nnc2ccccc21	MIC50	-	-	-	ATCC 27294	-	≥100 µM
O=C([C@@H](O)CO)N1CC=C(c2c(F)cc(N3C[C@H](COc4ccon4)OC3=O)cc2F)CC1	MIC	-	-	-	H37Rv (ATCC 27294)	broth dilution	1 µg/mL
CCOC(=O)c1ccc2c(c1)nc(-c1ccccc1)n2CCN1CCCC1=O	MIC	-	-	-	H37Rv	resazurin / fluorescence	100 µM
CN(C)C(=S)S(=O)(=O)CCCCS(=O)(=O)C(=S)N(C)C	inhibition	-	-	128 µg/mL	H37Rv	BACTEC	100%